Reference: publication PMC10994559 (PLOS Neglected Tropical Diseases, 2024)
“Also recorded” adds a separate entry of the source.

Tested on: IFN-γ
Assay: IFN-γ in splenocyte supernatant of treated mice (ELISA)
Format: in vivo, Balb/c mice

Compound	IFN-γ/IL-4 ratio (AmB 8 mg/kg i.p.)	IFN-γ production, splenocyte supernatant (AmB 8 mg/kg i.p., vs DMSO control)	IFN-γ/IL-4 ratio (PHT-39 13.75 mg/kg i.p.)	IFN-γ/IL-4 ratio (PHT-39 13.75 mg/kg s.c.)	IFN-γ production, splenocyte supernatant (PHT-39 13.75 mg/kg s.c., vs PHT-39 i.p and AmB, 13.75 mg/kg)
C[C@@H]1[C@H](O)[C@@H](C)/C=C/C=C/C=C/C=C/C=C/C=C/C=C/[C@H](O[C@@H]2O[C@H](C)[C@@H](O)[C@H](N)[C@@H]2O)C[C@@H]2O[C@](O)(C[C@@H](O)C[C@@H](O)[C@H](O)CC[C@@H](O)C[C@@H](O)CC(=O)O[C@H]1C)C[C@H](O)[C@H]2C(=O)O [AmB, amphotericin B, reference compound]	higher than in the DMSO control group	suppressed the amount of IFN-γ significantly	–	–	–
CC[C@@H](C)[C@H](c1nc2ccccc2n1Cc1cn(-c2ccc(C(F)(F)F)cc2)nn1)N1C(=O)c2ccccc2C1=O [PHT-39]	–	–	did not show any significant difference with DMSO control	significantly higher ratio	higher in group 2 (PHT-39 s.c) compared to PHT-39 i.p group; also recorded: induced more IFN-γ
